Test results taken from patent publication US11279728B2, “Broad spectrum viral inhibitor” (Albert Einstein College of Medicine, priority 2017, dated 2022).

System: ZIKV (MR766, PRVABC59, R103451)
Experiment: ZIKV replication and release from Vero cells
Settings: dependent on dose, MOI, duration of infection and strain

## Nc1ccn([C@@H]2OC(CO)=C[C@H]2O)c(=O)n1 [ddhC, 3′-deoxy-3′,4′-didehydro-cytidine]
  reduction in ZIKV virus titers: 1-2 orders of magnitude
